Data set [1] has as its system USF-1 + USF-2. The data set is described as follows: competition EMSA. The note with it: 5% nondenaturing PAGE in 0.5x TBE (25 mM Tris-HCl, 25 mM boric acid, 0.5 mM EDTA), HeLa nuclear extracts, toxin B 0.5 h, protein in an extract. (In general: A gel shift assay detects complexes by their altered migration in electrophoresis.)
The test system of data set [2] is USF-1 + USF-2. Nature of the data set: EMSA supershift. The note with it: toxin B-treated HeLa nuclear extract, anti-USF-1 or anti-USF-2; 5% nondenaturing PAGE in 0.5x TBE (25 mM Tris-HCl, 25 mM boric acid, 0.5 mM EDTA); HeLa nuclear extracts, toxin B 0.5 h; protein in an extract; label: 32P (unlabeled as competitor).
Where [3] appears, read: 100-fold excess cold probe vs labeled GILZ -63/-37, competes, label: none (cold competitor).

Construct, isoform or probe ends are uncertain for at least one entry. At least one result comes from cells or an extract, where the contact may be indirect. For some of these results: At least one verdict was read from the data and is not stated in words by the source.

With “CCCCTTGCGCCATGTGACGCAGCCGG (double strand) [CRE I mut]”, the binding result in the data set on USF-1 + USF-2 [1] (setting [3]) is “binds”.

Consider “CCCCTGACGCCATGTGGTATAGCCGG (double strand) [CRE II mut]”, for which the binding result in the data set with USF-1 + USF-2 [1] (setting [3]) is on record as “binds”.

Turning to “CCCCTGACGCCATGTGACGCAGCCGG (double strand) [GILZ -63/-37]”, the binding result in the data set on USF-1 + USF-2 [2] is “binds”; in the data set on USF-1 + USF-2 [1] (100-fold excess cold self-competitor abrogates binding, label: 32P (unlabeled as competitor)), “binds”.

The values above are taken from paper PMC3392236.
